# PSTVd loop 6 mutant pool in Nicotiana benthamiana

From the data files of Wu et al. 2024, doi:10.1371/journal.ppat.1012142.

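Three N. benthamiana plants were inoculated with the whole mutant pool. Progeny were sequenced from the inoculated region (day 5), the margin of the inoculated leaf (day 10) and systemic leaves (day 12).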

PSTVd intermediate strain, loop 6: wild type UGACCGCGAG, pool pattern UNNNCGNNNG; upper and lower strand joined, each 5' to 3', the first 5 letters being the upper strand, closing pairs included.

Values are reads per thousand in the sample; higher means more abundant, 0 means not found.
Each site shows the three plants.
"Pool" is the share in the plasmid pool used as inoculum, on the same scale.
The inoculated region was read from the minus strand, the other sites from the plus strand.

sequence | pool | inoculated region | leaf margin | systemic leaves
UGCGCGUCAG | 0.275 | 0.122 0.108 0.0553 | 0 0 0 | 0 0.0202 0
UGCGCGUCCG | 0.131 | 0.0521 0.0719 0.0738 | 0 0 0 | 0 0 0
UGCGCGUCGG | 0.209 | 0.0695 0.0898 0.0922 | 0 0 0 | 0 0 0
UGCGCGUCUG | 0.235 | 0.122 0.0180 0.0369 | 0 0 0.0232 | 0 0 0
UGCGCGUGAG | 0.183 | 0.156 0.0539 0.129 | 0 0 0 | 0 0 0
UGCGCGUGCG | 0.0915 | 0.209 0.108 0.0369 | 0 0 0.0232 | 0 0 0
UGCGCGUGGG | 0.196 | 0.0869 0.0359 0.0922 | 0 0 0 | 0 0 0
UGCGCGUGUG | 0.275 | 0.0869 0.126 0.0553 | 0 0 0.0232 | 0 0 0
UGCGCGUUAG | 0.340 | 0.122 0.0898 0.148 | 0 0 0 | 0.0359 0.0606 0.0820
UGCGCGUUCG | 0.183 | 0.0869 0.0898 0 | 0 0 0 | 0 0 0
UGCGCGUUGG | 0.209 | 0.122 0.0719 0.166 | 0 0 0 | 0 0 0
UGCGCGUUUG | 0.314 | 0.0348 0 0.0922 | 0 0 0 | 0 0 0
UGCGCUACGG | 0.0131 | 0 0 0 | 0 0 0 | 0 0 0
UGCGCUCGAG | 0.0131 | 0.0174 0.0180 0 | 0 0 0 | 0 0 0
UGCGCUUAGG | 0.0131 | 0 0 0 | 0 0 0 | 0 0 0
UGCUCGAAAG | 0.235 | 0.139 0.0359 0.166 | 0 0 0 | 0 0 0
UGCUCGAACG | 0.144 | 0.0521 0.108 0.129 | 0 0 0 | 0 0 0
UGCUCGAAGG | 0.170 | 0.104 0.0719 0.0738 | 0.0276 0 0 | 0 0 0
UGCUCGAAUG | 0.196 | 0.139 0.126 0.0922 | 0.0276 0 0 | 0 0 0
UGCUCGACAG | 0.288 | 0.0869 0.0719 0.0184 | 0.0276 0 0.0232 | 0 0 0
UGCUCGACCG | 0.144 | 0.104 0.126 0.0369 | 0 0 0.0232 | 0 0 0
UGCUCGACGG | 0.275 | 0.0695 0.126 0.0922 | 0 0 0 | 0 0 0
UGCUCGACUG | 0.288 | 0.0869 0.0359 0.0553 | 0 0 0 | 0 0 0
UGCUCGAGAG | 0.157 | 0.174 0.108 0.166 | 0.0276 0 0 | 0 0 0
UGCUCGAGCG | 0.183 | 0.0521 0.0359 0.0738 | 0 0 0.0232 | 0 0 0
UGCUCGAGGG | 0.222 | 0.0869 0.144 0.0553 | 0 0 0 | 0 0 0
UGCUCGAGUG | 0.196 | 0.139 0.0719 0.166 | 0 0 0 | 0 0 0
UGCUCGAUAG | 0.288 | 0.209 0.108 0.0738 | 0 0 0.209 | 0 0 0
UGCUCGAUCG | 0.275 | 0.0348 0.126 0.0738 | 0 0 0 | 0 0 0
UGCUCGAUGG | 0.471 | 0.104 0.126 0.111 | 0 0 0 | 0 0 0
UGCUCGAUUG | 0.301 | 0.0869 0.0719 0.111 | 0 0 0 | 0 0 0
UGCUCGCAAG | 0.118 | 0.139 0.108 0.240 | 0.0276 0 0.0464 | 0 0 0
UGCUCGCACG | 0.131 | 0.104 0.0539 0.0553 | 0 0 0.0232 | 0 0 0
UGCUCGCAGG | 0.196 | 0.0869 0.126 0.0922 | 0.0552 0 0 | 0 0 0
UGCUCGCAUG | 0.131 | 0.0695 0.0719 0.0922 | 0 0 0 | 0 0 0

A selection of 3 entries from above:

sequence,pool,inoculated region,leaf margin,systemic leaves
UGCUCGAAAG,0.235,0.139 0.0359 0.166,0 0 0,0 0 0
UGCUCGCAAG,0.118,0.139 0.108 0.240,0.0276 0 0.0464,0 0 0
UGCGCGUCUG,0.235,0.122 0.0180 0.0369,0 0 0.0232,0 0 0

Samples held 36,220 to 57,551 reads, so the smallest values rest on one or two reads.
Sequences that differ at fixed positions probably stem from PCR or sequencing errors, and defective variants can be carried along by functional ones.
For reference, wild type rose from 20.7 per thousand in the pool to 195, 198, 203 (inoculated region), 629, 591, 734 (leaf margin) and 942, 870, 868 (systemic leaves).